PubChem BioAssay AID624099 – ICCB-Longwood – 2012
Test: 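Knock-downs relieving repression by E2 of an HPV18 LCR luciferase reporter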 (primary screen). Cell system: human C33A cervical carcinoma cells (HPV-negative) stably expressing BPV1 E2 and an HPV18 LCR luciferase reporter. Reagent: siRNA pool against human genes, 40 nM. Timing: 72 h. Read-out: 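Per-well luciferase luminescence, z-scored on each plate against the plate mean and SD with control wells left out, then averaged across three replicate plates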. Scale: mean z-score and z-score: higher = stronger reporter signal, weaker E2 silencing. Call rule: 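Hit if mean z-score reaches 2 and two or more of three replicate z-scores also reach 2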.
The deposit covers about 21,000 reagents; shown is a part drawn at random. In the full data, 497 (2.4%) are marked active. 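Higher z means weaker E2 silencing; only reporter increases were scored, and knock-downs that hurt cell survival may mask genuine repressor factors.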 Entries without a mark were called inactive. The numbers tell different reagents against one gene apart.

Against CPLX2 (complexin 2) #1, the entry reads mean z-score 0.08; z-score, replicate A = 0.38; z-score, replicate B = -0.01; z-score, replicate C = -0.12.
CPLX2 (complexin 2) #2 scored mean z-score 1.63; z-score, replicate A = 1.56; z-score, replicate B = 1.78; z-score, replicate C = 1.56.
Knock-down of ANXA13 (annexin A13) resulted in: mean z-score -0.1; z-score, replicate A = -0.33; z-score, replicate B = 0.17; z-score, replicate C = -0.15.
After knock-down of PTPRG (protein tyrosine phosphatase receptor type G), the screen gave mean z-score 0.59; z-score, replicate A = 0.49; z-score, replicate B = 0.23; z-score, replicate C = 1.04.
For DAZ2 (deleted in azoospermia 2) the deposit lists mean z-score 0.06; z-score, replicate A = 0.01; z-score, replicate B = 0.1; z-score, replicate C = 0.06.
For CENPT (centromere protein T) the deposit lists mean z-score -0.35; z-score, replicate A = -0.28; z-score, replicate B = -0.46; z-score, replicate C = -0.3.
After knock-down of EYA1 (EYA transcriptional coactivator and phosphatase 1), the screen gave mean z-score 1.16; z-score, replicate A = 1.04; z-score, replicate B = 1.33; z-score, replicate C = 1.13.
Depletion of AKR1C1 (aldo-keto reductase family 1 member C1) gave: mean z-score -1.1; z-score, replicate A = -1.05; z-score, replicate B = -1.05; z-score, replicate C = -1.18.

Laid out differently: entries from further up
CPLX2 (complexin 2) #2
- mean z-score: 1.63
- z-score, replicate A: 1.56
- z-score, replicate B: 1.78
- z-score, replicate C: 1.56

ANXA13 (annexin A13)
- mean z-score: -0.1
- z-score, replicate A: -0.33
- z-score, replicate B: 0.17
- z-score, replicate C: -0.15

The list goes on:
DENND4A (DENN domain containing 4A) scored mean z-score -1.56; z-score, replicate A = -1.28; z-score, replicate B = -1.83; z-score, replicate C = -1.55.
LIMS2 (LIM zinc finger domain containing 2) showed mean z-score 0; z-score, replicate A = -0.22; z-score, replicate B = -0.08; z-score, replicate C = 0.3.
After knock-down of PPM1K (protein phosphatase, Mg2+/Mn2+ dependent 1K), the screen gave mean z-score -0.52; z-score, replicate A = -0.95; z-score, replicate B = -0.6; z-score, replicate C = -0.02.
Against STC2 (stanniocalcin 2) the deposit lists mean z-score -0.99; z-score, replicate A = -0.94; z-score, replicate B = -1.07; z-score, replicate C = -0.96.
With knock-down of SYCP2L (synaptonemal complex protein 2 like) the results were mean z-score 1.05; z-score, replicate A = 0.7; z-score, replicate B = 1.12; z-score, replicate C = 1.34.
GUCY2D (guanylate cyclase 2D, retinal) gave mean z-score -0.85; z-score, replicate A = -0.42; z-score, replicate B = -0.92; z-score, replicate C = -1.22.
